Biological target: SARS-CoV-2 nsp14 guanine-N7 methyltransferase (Severe acute respiratory syndrome coronavirus 2, UniProt P0DTD1)
Assay: High-throughput primary screen for nsp14 inhibitors (HTRF, Z-scores)
Assay type: biochemical
Settings: compounds at 3.125 µM; 10 nM nsp14, 1 µM SAM, 0.13 mM GpppA, 20 min

## O=[N+]([O-])c1cc(O)c(O)c([N+](=O)[O-])c1
  Z-Score in primary screen: 3.084

Reference: paper PMC8286817, “Identifying SARS-CoV-2 antiviral compounds by screening for small molecule inhibitors of Nsp14 RNA cap methyltransferase” (Biochemical Journal, 2021)
